Experimental data taken from patent US20250281536A1 (published 2025).

B1: Binder 387 expressed as homodimer with mouse Fc (Fc fusion)
chain: DLGKKLLEAARAGQDDEVRILMANGADVNAMDHFGFTPLHLAAKVGHLEIVEVLLKYGADVNADDMDGETPLHLAAAIGHLEIVEVLLKNGADVNAHDTWGFTPLHLAASYGHLEIVEVLRKYGADVNAQDKFGETTFDISIDNGNEDLAEILQKLN
notes: not shown: mouse Fc
B2: Binder 256 expressed as homodimer with mouse Fc (Fc fusion)
chain: EVQLVESGGGLVQSGGSLRLSCAASGFTFSGYWMYWVRQAPGKGLEWVSAISPGGGSTYYPDSVKGRFTISRDNAKNTLYLQMNSLEPEDTALYYCASSLTATHTYEYDYWGQGTQVTVSS
notes: also called VHH4; not shown: mouse Fc

Tests used:
Human CD4-Fc [1] = target: T1, Human CD4-Fc (human, UniProt P01730 26-390); assay: BLI; human CD4-Fc captured; binder-mouse Fc homodimer at 250 nM
T1 construct: not shown: Fc

Human CD4-Fc [2] = target: T1, Human CD4-Fc; assay: BLI; human CD4-Fc captured; binder-mouse Fc homodimer at 500 nM

Binder	koff (Human CD4-Fc [1])	kon (Human CD4-Fc [1])	Kd (Human CD4-Fc [2])	koff (Human CD4-Fc [2])	kon (Human CD4-Fc [2])
B1	1.75e-05 s⁻¹	24700 M⁻¹ s⁻¹	–	–	–
B2	–	–	5.14 nM	0.00046 s⁻¹	89500 M⁻¹ s⁻¹
